Results deposited as PubChem BioAssay AID1259414 (Drosophila RNAi Screening Center, 2018).
Aim: 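Fly genes that alter Wolbachia amount inside host cells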 (primary screen). Cell system: Drosophila JW18 cells infected with Wolbachia. Knock-down reagent: long dsRNA against Drosophila genes, 0.25 µg dsRNA per well of a 384-well plate. Timing: 5 days. Conditions: cells persistently infected with Wolbachia before knock-down; no added drug. Measurement: 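Automated imaging of bacterial rRNA staining divided by host cell count, reported as plate-normalised robust z-score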. Scale: Wolbachia per cell robust z: higher = more Wolbachia per host cell than the plate typical. Active means: 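Active if absolute robust z reaches 1.5 in two or more of three replicates, leaving out multi- or no-target dsRNAs, genes unexpressed in JW18 and A1 wells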.
The deposit covers about 24,000 reagents; this is a random part of those with a known target gene and a result. In the full data, about 1,210 (5%) were called active. 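Inactive calls also include excluded dsRNAs with several or no targets, genes unexpressed in JW18, and well A1, regardless of score.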 Names joined by + are all predicted targets of the reagent.

Target gene	amplicon	Wolbachia per cell robust z, rep 1	Wolbachia per cell robust z, rep 2	Wolbachia per cell robust z, rep 3	Outcome
CG14687	DRSC14910	-0.585	-2.01	-0.497	inactive
CG14687	DRSC29639	-0.0281	0.46	-0.186	inactive
CG1671	DRSC06617	0.709	0.012	0.0451	inactive
CG16896	DRSC04284	0.606	-0.853	0.00618	inactive
Spn75F	DRSC09589	-0.325	-0.311	-0.213	inactive
CR15821	DRSC08481	-0.464	-3.85	-1.76	active
CR15821	DRSC24584	0.0377	0.882	-0.656	inactive
cactin	DRSC20576	-0.119	-1.43	-1	inactive
Med	DRSC25769	0.273	0.824	0.475	inactive
Med	DRSC40731	-0.172	-1.5	0.26	inactive
Loxl2	DRSC04469	0.422	-0.267	-1.48	inactive
Trhn	DRSC08621	-2.14	-0.784	-2.3	active
CG13616	DRSC14619	0.673	0.0289	-4.98	inactive
mt:CoII	DRSC40607	0.676	1.49	-1.95	inactive
Osi16	DRSC12135	0.291	-9.01	-0.695	inactive
Osi16	DRSC21323	0.297	-0.588	0.624	inactive
CG15543	DRSC15081	1.15	0.915	-4.06	inactive
CG15543	DRSC41449	0	-1.05	0.233	inactive
CG33768	DRSC11715	-0.249	0.00931	-0.532	inactive
CG11997	DRSC14464	0.783	0.563	0.734	inactive
CG11997	DRSC26460	-1.22	1.07	-1.15	inactive
CG13117	DRSC02215	-0.0521	0.653	-0.561	inactive
CG13117	DRSC26983	-7.14	0.457	-0.401	inactive
CG10332 + IM18	DRSC04064	-0.243	-0.358	0.468	inactive
Cyp6t1	DRSC20564	-0.356	-0.128	0.0728	inactive
Cyp6t1	DRSC24235	-0.626	-0.601	0.469	inactive
CG10000	DRSC14170	-4.19	0.658	-4.96	inactive
CG10000	DRSC29791	-7.32	0.269	-3.49	inactive
CG15649	DRSC04240	-0.827	0.216	-0.903	inactive
CG15649	DRSC29626	-0.185	-1.3	-0.37	inactive
Klp10A	DRSC19601	0.0836	-5.54	-1.19	inactive
Klp10A	DRSC24185	-0.0735	1.79	0.981	inactive
CG13613	DRSC14616	0.613	-1.78	0.773	inactive
CG17237	DRSC00491	-2.08	0.934	-0.186	inactive
CG32259	DRSC08082	0.0367	1.07	0.0735	inactive
Ttc1	DRSC15016	0.589	-0.291	-0.0591	inactive
Ttc1	DRSC22469	-2.56	0.152	0.465	inactive
Ttc1	DRSC26111	-1.25	0.342	0.0293	inactive
IntS8	DRSC07417	0.955	0.839	0.585	inactive
Ugt303B2	DRSC14198	0.0604	-1.08	0.538	inactive
Ugt303B2	DRSC22864	-0.221	-1.53	-0.834	inactive
CG12689	DRSC17879	-0.945	-1.07	-0.482	inactive
capt	DRSC00676	-2.73	-0.0632	0.0473	inactive
capt	DRSC00806	1.21	-0.859	0.788	inactive
capt	DRSC27343	-0.974	-0.422	-0.593	inactive
capt	DRSC28196	1.2	1.1	0.0812	inactive
Tango10	DRSC19807	-5.08	-0.372	-0.641	inactive
Tango10	DRSC26535	0.139	-1.1	0.746	inactive
Sap-r	DRSC16849	1.02	0.439	-0.325	inactive
Sap-r	DRSC21916	-1.62	-1.08	0.529	inactive
Sap-r	DRSC27246	0.286	-0.926	-2.51	inactive
CG42561	DRSC05676	0.714	5.23	0.102	inactive
CG33178	DRSC19950	-0.345	-0.761	0.769	inactive
CG4293	DRSC18557	0.341	-1.09	0.374	inactive
CG30158	DRSC04956	0.363	0.822	-0.0153	inactive
CG30158	DRSC04974	-0.622	-6.32	-6.09	inactive
CG30158	DRSC04975	0.45	-1.38	0.236	inactive
CG30158	DRSC05012	-1.18	0.439	0.568	inactive
ATPsynCF6	DRSC14092	0.299	0.894	-4.17	inactive
Cad88C	DRSC15486	-0.96	-1.5	-1.02	inactive
Cad88C	DRSC26126	-0.853	-1.27	0.287	inactive
CG10591	DRSC09748	-0.968	0.436	-0.314	inactive
CG10591	DRSC27468	0.821	0.651	-0.235	inactive
CG14258	DRSC14753	0.754	-3.22	0.851	inactive
CG3907	DRSC04432	-4.59	-1.19	-6.98	active
CG1801	DRSC20556	-0.713	-0.883	-0.24	inactive
l(3)80Fg + CR41320	DRSC38582	1.72	0.0229	-0.0456	inactive
CG7907	DRSC16339	0.293	0.0593	0.499	inactive
CG7907	DRSC26041	0.65	0.969	-1.01	inactive

Records listed above called active, once more:
Target gene	amplicon	Wolbachia per cell robust z, rep 1	Wolbachia per cell robust z, rep 2	Wolbachia per cell robust z, rep 3	Outcome
CR15821	DRSC08481	-0.464	-3.85	-1.76	active
Trhn	DRSC08621	-2.14	-0.784	-2.3	active
CG3907	DRSC04432	-4.59	-1.19	-6.98	active
